Anti-infective test results gathered from many reports (values: NIAID ChemDB through PubChem).

All rows: whole-cell or culture tests; species: Cryptococcus neoformans

ECn: concentration that inhibits the pathogen or its effect by n%. Two numbers with a dash give a range or band. Rows are shuffled and stem from different studies. An empty or dashed field is not shown. A number after MIC or MFC names an inhibition level or a share of isolates.

| compound | strain or isolate | method | endpoint | setting | value |
|---|---|---|---|---|---|
| COc1cc(NS(=O)(=O)c2ccc(N)cc2)ncn1 | IFM 49624 |  | MIC |  | ≥256 µg/mL |
| CCN1CCC(O)(/C=C/c2ccc(Cl)cc2)C(C(=O)/C=C/c2ccc(Cl)cc2)C1 | 15 strains |  | MIC50 |  | 1 µg/mL |
| C[C@@H]1C(=O)N(CCc2ccccc2)C(=O)[C@@H]1C | ATCC 32264 | broth dilution / turbidity | MIC |  | 62.5 µg/mL |
| Cc1ccc(CC(Cc2ccc(-c3ccccc3)cc2)n2ccnc2)cc1 |  |  | MFC |  | 33 µM |
| CC(N1CCN(c2ccc(-n3cnn(Cc4ccc(C(F)(F)F)cc4)c3=O)cc2)CC1)C(O)(Cn1cncn1)c1ccc(F)cc1F | 8 strains |  | MIC90 |  | 0.19 µg/mL |
| CC1=C2[C@@H](OC(=O)/C=C/c3ccccc3)[C@H](C(C)C)CC[C@]2(C)[C@@H](O)CC1=O | CECT1075 |  | MIC |  | 8 µg/mL |
| COC(=O)c1c(N)oc2cc(C)c(O)cc12 | KCCM 50564 | broth dilution | MIC |  | 6.3 µg/mL |
| CCCCCCCCNC1NCCC2c3ccccc3CCN12 | NFI3102 |  | MIC |  | 4 µg/mL |
| Cc1cccc(N(C)C(=S)Oc2ccc3c(c2)C2CCC3C2)c1 | 33 strains |  | MIC90 |  | 1.25 µg/mL |
| CC(N1CCN(c2ccc(-n3cnn(Cc4ccc(OC(F)(F)F)cc4)c3=O)cc2)CC1)C(O)(Cn1cncn1)c1ccc(F)cc1F | 8 strains |  | MIC90 |  | 0.19 µg/mL |
| CN(CC(=O)Nc1ccccc1[N+](=O)[O-])CC(O)(Cn1cncn1)c1ccc(F)cc1F |  |  | MIC80 |  | 4 µg/mL |
| COc1ccc(N2C(=O)CC(C)C2=O)cc1 | ATCC 32264 | broth dilution / turbidity | MIC |  | 62.5 µg/mL |
| CCC(C)n1ncn(-c2ccc(N3CCN(c4ccc(OC[C@H]5CO[C@](Cn6cncn6)(c6ccc(Cl)cc6Cl)O5)cc4)CC3)cc2)c1=O | 3 strains |  | MIC |  | 0.015–0.25 µg/mL |
| CC[C@@H]1OC(=O)[C@H](C)C(=O)C(O)(CO)C/C(Cl)=C/[C@@H](C)Cc2cccc1c2 | ATCC90112 |  | MIC |  | >64 µg/mL |
| Fc1ccc(CC(Cc2ccc(-c3ccccc3)cc2)n2ccnc2)cc1 |  |  | MFC |  | 33 µM |
| CC(C)CCCCCCNC1NCCC2c3ccccc3CCN12 | NFI3102 |  | MIC80 |  | 2 µg/mL |
| COc1ccc(/C=C2\COc3ccc(-c4ccccc4)cc3C2=O)cc1OC | 25 |  | MIC |  | 50 µg/mL |
| CN(CC(=O)Nc1cccc([N+](=O)[O-])c1)CC(O)(Cn1cncn1)c1ccc(F)cc1F |  |  | MIC80 |  | 64 µg/mL |
| Cc1ccccc1N1C(=O)C[C@@H](C)C1=O | ATCC 32264 | broth dilution / turbidity | MIC |  | 62.5 µg/mL |
| C=C(CCCCCNC1NCCC2c3ccc(OC)cc3CCN12)C(C)C | NFI3102 |  | MIC80 |  | 2 µg/mL |
| CN(CC(=O)Nc1ccc(F)c(Cl)c1)CC(O)(Cn1cncn1)c1ccc(F)cc1F |  |  | MIC80 |  | 1 µg/mL |
| CCc1ccc(-n2cc(C(=O)OC)c3c2C(=O)C(C)=C(C)C3=O)cc1 | KCCM 50564 |  | MIC |  | 60 µg/mL |
| COc1ccc(/C=C2\CSc3ccc(Cl)cc3C2=O)cc1OC | 25 |  | MIC |  | 6 µg/mL |
| CC(C)=CCC1=C(O)c2ccccc2C(=O)C1=O |  |  | MIC |  | 0.03 µg/mL |
| c1ccc(CC(Cc2ccc(-c3ccccc3)cc2)n2ccnc2)cc1 |  |  | MIC |  | 5.5 µM |
| CC(C)=CCCCCCNC1NCCC2c3ccccc3CCN12 | NFI3102 |  | MIC80 |  | 1 µg/mL |
| COc1cc(O)c2c(c1)C(=O)c1c(cc3c(c1O)-c1c(cc(C)c(C(=O)NC(C)C(=O)O)c1O)[C@H](OC1OC(C)C(N(C)C(=O)CCC(=O)O)C(OC4OCC(O)C(O)C4O)C1O)[C@H]3O)C2=O | IAM 4514 |  | MIC |  | >100 µg/mL |
| C[C@H]1[C@H](O)[C@@H](C)/C=C/C=C/C=C/C=C/C=C/C=C/C=C/[C@H](O[C@@H]2O[C@H](C)[C@@H](O)[C@H](N)[C@@H]2O)C[C@@H]2O[C@](O)(C[C@@H](O)C[C@@H](O)CC[C@H](O)[C@@H](O)C[C@@H](O)CC(=O)O[C@H]1C)C[C@H](O)[C@H]2C(=O)O | ATCC 90113 |  | MIC |  | 2.5 µg/mL |
| CCCCC/C=C/C=C/C(O)C/C=C/C=C/C(=O)OC1C(O)C(c2c(O)cc(O)cc2CO)OC(CO)C1OC1OC(C(O)COC(=O)/C=C/C=C\CCC(O)CC)C(O)C1O | IMC F-10 |  | MIC |  | >100 µg/mL |
| CC1CC(=O)N(c2ccc([N+](=O)[O-])cc2)C1=O | ATCC 32264 | broth dilution / turbidity | MIC |  | 125 µg/mL |
| CC1=CCC[C@@H]2[C@@](C)(CC/C(C)=C/Cn3c[n+](C)c4ncnc(NO)c43)[C@H](C)CC[C@@]12C | ATCC 90113 | resazurin | EC50 |  | 4.96 µg/mL |
| C[C@@H](c1nc(-c2ccc(C#N)cc2)cs1)[C@](O)(Cn1cnnc1)c1ccc(F)cc1F | 541 isolates |  | MIC90 |  | 0.25 µg/mL |
| C[C@@H](c1ncncc1F)[C@](O)(Cn1cncn1)c1ccc(F)cc1F |  |  | MIC90 |  | 0.034 µg/mL |
| COC(=O)c1c(N)oc2c(C)c(C)c(O)c(Sc3cccc(C)c3)c12 | KCCM 50564 | broth dilution | MIC |  | 6.3 µg/mL |
| CCCCCOc1ccc(-c2cc(-c3ccc(C(=O)N[C@H]4C[C@@H](O)[C@@H](O)NC(=O)[C@@H]5[C@@H](O)[C@@H](C)CN5C(=O)[C@H]([C@H](O)CC(N)=O)NC(=O)[C@H]([C@H](O)[C@@H](O)c5ccc(O)c(OS(=O)(=O)O)c5)NC(=O)[C@@H]5C[C@@H](O)CN5C(=O)[C@H]([C@@H](C)O)NC4=O)cc3)no2)cc1 | JEC21 | broth dilution | EC50 |  | >2 µg/mL |
| Cc1ccc(/C=C2\COc3ccccc3C2=O)cc1 | Farwania |  | MIC |  | 12.5 µg/mL |
| CCCCCCCCCCCCCCCCOP(=O)([O-])OCC[N+](C)(C)C |  |  | MFC |  | 8 µg/mL |
| CN[C@H]1CC[C@@H](c2ccc(Cl)c(Cl)c2)c2ccccc21 | 93BC2-52 | broth dilution | MIC90 |  | 3 µg/mL |
| CC1CC(=O)N(c2ccccc2)C1=O | ATCC 32264 | broth dilution / turbidity | MIC |  | 125 µg/mL |
| CCCCCCCCCCCCCCCCCCC1=NCCCC1 | ATCC 90113 |  | MIC |  | 0.47 µg/mL |
| C[C@H]1[C@H](O)C(=O)CC2[C@]3(C)CC[C@@]4(C)C5C[C@](C)(C(=O)O)CC[C@]5(C)CC[C@]4(C)C3CC[C@@]21C |  |  | MIC |  | >50 µg/mL |
| C[C@H]1[C@H](O)[C@@H](C)/C=C/C=C/C=C/C=C/C=C/C=C/C=C/[C@H](O[C@@H]2O[C@H](C)[C@@H](O)[C@H](N)[C@@H]2O)C[C@@H]2O[C@](O)(C[C@@H](O)C[C@@H](O)CC[C@H](O)[C@@H](O)C[C@@H](O)CC(=O)O[C@H]1C)C[C@H](O)[C@H]2C(=O)O | IAM 4514 |  | MIC |  | 0.2 µg/mL |
| CC#CC#CC#Cc1ccccc1 |  |  | MIC |  | 12.5 µg/mL |
| CN[C@@H]1[C@H](O[C@@H]2OC[C@@H](O)[C@H](O)[C@H]2O)[C@@H](O)[C@H](O[C@H]2c3cc(C)c(C(=O)N[C@H](C)C(=O)O)c(O)c3-c3c(cc4c(c3O)C(=O)c3cc(OC)cc(O)c3C4=O)[C@@H]2O)O[C@@H]1C | D49 |  | MIC |  | 1.6 µg/mL |
| O=C1/C(=C/c2ccc3ccccc3c2)CSc2ccc(Cl)cc21 | 25 |  | MIC |  | 50 µg/mL |
| Nc1ccc(S(=O)(=O)Nc2ccnn2-c2ccccc2)cc1 | IFM 40215 |  | MIC |  | ≤4 µg/mL |
| COc1cc(O)c2c(c1)C(=O)c1c(cc3c(c1O)-c1c(cc(C)c(C(=O)NC(C)C(=O)O)c1O)[C@H](OC1OC(C)C(N(C)C/C=C/C(=O)O)C(OC4OCC(O)C(O)C4O)C1O)[C@H]3O)C2=O | IAM 4514 |  | MIC |  | 3.1 µg/mL |
| O=C1/C(=C/c2ccc3c(c2)OCO3)CSc2ccccc21 | Farwania |  | MIC |  | 12.5 µg/mL |
| CCN1CCC(O)(/C=C/c2ccc(Cl)c(Cl)c2)C(C(=O)/C=C/c2ccc(Cl)c(Cl)c2)C1 | 2 strains |  | Mean MIC |  | 3.12 µM |
| C[C@@H]1CC(=O)N(CCCCc2ccccc2)C1=O | ATCC 32264 | broth dilution / turbidity | MIC |  | 31.3 µg/mL |
| CCO[C@@H]1[C@@H](OCC)[C@H](Cc2ccccc2)O[C@@H]2CO[C@@H](c3ccc(Cl)cc3)O[C@@H]12 | ATCC90112 |  | MIC |  | >25 µg/mL |
| CC1C(=O)N(c2ccccc2)C(=O)C1C | ATCC 32264 | broth dilution / turbidity | MIC |  | 125 µg/mL |
| COc1cc(NS(=O)(=O)c2ccc(N)cc2)nc(OC)n1 | IFM 51976 |  | MIC |  | ≥256 µg/mL |
| CCN1CCC(O)(/C=C/c2ccc(C)cc2)C(C(=O)/C=C/c2ccc(C)cc2)C1 | 2 strains |  | Mean MIC |  | 50 µM |
| COc1cc(O)c2c(c1)C(=O)c1c(cc3c(c1O)-c1c(cc(C)c(C(=O)NC(C)C(=O)O)c1O)[C@H](OC1OC(C)C(N(CC(=O)O)CC(=O)O)C(OC4OCC(O)C(O)C4O)C1O)[C@H]3O)C2=O | IAM 4514 |  | MIC |  | >100 µg/mL |
| OC(CN1CCN(c2ccc(OCc3ccncc3)cc2)CC1)(Cn1cncn1)c1ccc(F)cc1F | ATCC32609 |  | MIC80 |  | 2 µg/mL |
| CC(C)=C[C@H]1C[C@](C)(O)C2C3CCC4[C@@]5(C)CCC[C@](C)(O[C@H]6OC[C@H](O)[C@H](OC7O[C@H](CO)[C@@H](O)[C@H](O)[C@H]7OC(=O)/C=C/c7ccc(OC(=O)CC(=O)O)cc7)[C@H]6O[C@H]6C[C@H](CO)[C@@H](O)[C@@H]6O)C5CC[C@@]4(C)[C@@]34CO[C@@]2(C4)O1 |  |  | MIC |  | >50 µg/mL |
| COc1cc(/C=C2\CSc3ccccc3C2=O)ccc1O | Farwania |  | MIC |  | 50 µg/mL |
| COc1ccc(NS(=O)(=O)c2ccc(N)cc2)nn1 | IFM 40215 |  | MIC |  | 128 µg/mL |
| CCCCOc1c(OC)ccc2c(Cc3ccc(C(C)C)cc3)c3[n+](cc12)CCc1cc2c(cc1-3)OCO2 | H99 | visual reading | MIC |  | 4 µg/mL |
| CC(C)(C)c1ccc(CC(Cc2ccc(-c3ccccc3)cc2)n2ccnc2)cc1 |  |  | MIC |  | 33 µM |
| S=C(S)n1nnc2ccccc21 |  | broth dilution / absorbance | EC50 | 48 h | >50 µg/mL |

For reference, 4 entries again:

CC1CC(=O)N(c2ccccc2)C1=O ; strain or isolate: ATCC 32264 ; method: broth dilution / turbidity ; endpoint: MIC ; value: 125 µg/mL
C[C@@H]1C(=O)N(CCc2ccccc2)C(=O)[C@@H]1C ; strain or isolate: ATCC 32264 ; method: broth dilution / turbidity ; endpoint: MIC ; value: 62.5 µg/mL
O=C1/C(=C/c2ccc3c(c2)OCO3)CSc2ccccc21 ; strain or isolate: Farwania ; endpoint: MIC ; value: 12.5 µg/mL
CC(C)(C)c1ccc(CC(Cc2ccc(-c3ccccc3)cc2)n2ccnc2)cc1 ; endpoint: MIC ; value: 33 µM